A mixed list of measured activities; the numbers were collected in NIAID ChemDB.

Shared fields: tests in culture; agent: Mycobacterium tuberculosis

Neighbouring rows are from separate reports. ECn: concentration that inhibits the pathogen or its effect by n%. a–b is a range or a potency band. Inhibition is in % at the dose shown (toxicity tests: loss of growth or viability). Blank or dashed fields: not listed here. MIC50, MIC90 and the like: level of inhibition, or share of isolates inhibited. MIC bound comes from a single tested concentration.

structure,dose,mutations,strain,cell line,read-out,read by,value
O=[N+]([O-])c1ccc(Oc2cnc3nc(-c4ccccc4F)[nH]c3c2)cc1,,,H37Rv,,MIC80,resazurin / absorbance,1 µM
S=C(N=Nc1ccccc1)NNc1ccccc1,,,H37Ra,,MIC,,400 µg/mL
CC1=CC(=O)c2c(O)cccc2C1=O,,,CIBIN 99 (MDR-MTB),,MIC,resazurin,1.56 µg/mL
O=[N+]([O-])c1ccc(N/N=C/C2C=C(CO)OC=C2O)nc1,12.5 µg/mL,,H37Rv,,inhibition,BACTEC,5%
CO[C@H]1/C=C/O[C@@]2(C)Oc3c(C)c(O)c4c(O)c(c(/C=N/N5CCN(C)CC5)c(O)c4c3C2=O)NC(=O)/C(C)=C\C=C\[C@H](C)[C@H](O)[C@@H](C)[C@@H](O)[C@@H](C)[C@H](OC(C)=O)[C@@H]1C,,,Clinical isolate 30034,,MIC,broth dilution,≤1 µM
Fc1ccc2c(Nc3ccc(Oc4ccc(Cl)c(Cl)c4)cc3)ncnc2c1,,,H37Rv,,MIC50,luminescence,>20 µM
CC12C(=O)c3cccc(O)c3C(=O)C1CC13OC12C(=O)c1c(O)cccc1C3=O,,,H37Rv (S-MTB),,MIC,resazurin,25 µg/mL
O=C1C=CC(=O)c2ccccc21,,,H37Ra,,MBC,,400 µg/mL
C[C@H]1COc2c(N3CCN(C)CC3)c(F)cc3c(=O)c(C(=O)O)cn1c23,,,,,MIC,,2 µg/mL
C[C@@H]1CN(c2c(F)c(N)c3c(=O)c(C(=O)O)cn(C4CC4)c3c2F)C[C@H](C)N1,,,18 strains,,MIC90,,0.5 µg/mL
CC1=CCC2C(C1)C2(C)C,,,H37Rv,,MIC,resazurin,8.16 µg/mL
COc1c(N2CCc3ccccc3C2C(=O)NC(C)(C)C)c(F)cc2c(=O)c(C(=O)O)cn(C3CC3)c12,,,H37Rv (MTB),,MIC,,13.31 µM
O=C1OC2(CCCCC2)OC(=O)C1=C/C=C/c1ccc([N+](=O)[O-])o1,,,H37Rv,,MIC,BACTEC,≥12.5 µg/mL
CO/C(C)=C1/NC(=O)[C@H]([C@@H](C)O)NC(=O)c2csc(n2)-c2cc(O)c(-c3nc(C(=O)NNC4CCN(C)CC4)cs3)nc2-c2csc(n2)[C@@H]2COC(=O)c3c4c5c(cccc5n3O)COC(=O)[C@@H](O[C@H]3C[C@](C)(O)[C@H](N(C)C)[C@H](C)O3)[C@@H](OC4)[C@H](NC(=O)c3csc1n3)c1nc(cs1)C(=O)N2,,,Clinical Isolate 913,,MIC,broth dilution,10–100 µM
NC(=S)N(Cc1cc2ccccc2nc1Cl)c1ccc(Cl)cc1,,,H37Ra,,MIC,,100 µg/mL
COC(=O)/C1=C/c2c([nH]c3ccc(F)cc23)/C(C(=O)OC)=C\c2c1[nH]c1ccc(F)cc21,,,H37Rv,,EC50,resazurin / absorbance,1.68 µM
Fc1ccc(C2CCN(c3ccc(Nc4ncnc5cc(F)ccc45)cc3)CC2)cc1,,,H37Rv,,MIC50,luminescence,>20 µM
Cc1cccc(-c2nc3ncc(Oc4ccc([N+](=O)[O-])cc4)cc3[nH]2)c1,,,H37Rv,,MIC80,resazurin / absorbance,1.5 µM
NC(=S)N(Cc1cc2ccccc2nc1Cl)c1ccc(F)cc1,,,H37Ra,,MIC,,100 µg/mL
CO[C@H]1/C=C/O[C@@]2(C)Oc3c(C)c(O)c4c(O)c(c(/C=N/N5CCN(C)CC5)c(O)c4c3C2=O)NC(=O)/C(C)=C\C=C\[C@H](C)[C@H](O)[C@@H](C)[C@@H](O)[C@@H](C)[C@H](OC(C)=O)[C@@H]1C,,,H37Rv,,EC50,resazurin / absorbance,0.55 µM
CC(=O)N1N=C(C2=C(C)NC(=O)NC2c2ccccc2F)OC1c1ccccc1O,250 µg/mL,,H37Rv,,inhibition,agar / visual reading,69%
CC1=CC(=O)c2c(O)ccc(-c3ccc(O)c4c3C(=O)C(C)=CC4=O)c2C1=O,,,CIBIN 99 (MDR-MTB),,MIC,resazurin,3.13 µg/mL
C#C/C=C/C[C@@H](OC(C)=O)[C@H]1C/C=C\C[C@H](Br)[C@@H](CC)O1,12.5 µg/mL,,H37Rv,,inhibition,BACTEC,8%
Cc1cc(C)c2sc(NN3CCCC3)nc2c1,,,H37Rv,,EC90,agar,1.75 µg/mL
Cc1nc(Nc2ccc(Oc3ccc(C(F)(F)F)cc3)cc2)c2ccccc2n1,,,H37Rv,,MIC50,luminescence,>20 µM
CCN(CC)C(=S)SCCO,128 µg/mL,,H37Rv,,inhibition,BACTEC,75%
NNC(=O)c1ccncc1,,,H37Rv,,MIC80,resazurin / absorbance,0.3 µM
CNC(=S)N(Cc1cc2ccccc2nc1Cl)c1ccc(C)cc1,,,H37Ra,,MIC,,400 µg/mL
Cc1ccc(CCNc2ncnc3ccccc23)cc1,,,H37Rv,,MIC50,luminescence,>10 µM
CC(C)=CCC1=C(O)c2ccccc2C(=O)C1=O,,,H37Ra,,MIC,,100 µg/mL
O=[N+]([O-])c1ccc(-c2nc(N(CCO)CCO)c3ccccc3n2)o1,,,H37Rv,,MIC bound,BACTEC,≤12.5 µg/mL
CC(C)(C)OC(=O)N1CCC2(CC1)CCN(c1ncnc3ccccc13)CC2,,,H37Rv,,MIC50,luminescence,>10 µM
O=[N+]([O-])c1ccc(N=NNc2ccc([N+](=O)[O-])cc2Br)c(Br)c1,,,H37Ra-lux,,EC90,luminescence,4.95 µM
C/C(=N\NC(=O)c1cccnc1)c1cccc(/C(C)=N/NC(=O)c2cccnc2)n1,,,H37Rv,,MIC bound,BACTEC,≤12.5 µg/mL
FC(F)(F)c1ccc(Oc2ccc(Nc3ccnc4ccnn34)cc2)cc1,,,H37Rv,,MIC50,luminescence,>10 µM
CC1COc2c(N3CCN(C)CC3)c(F)cc3c(=O)c(C(=O)O)cn1c23,,,CIBIN 99 (MDR-MTB),,MIC,resazurin,0.5 µg/mL
O=[N+]([O-])c1ccc(Oc2cnc3nc(-c4ccc([N+](=O)[O-])cc4)[nH]c3c2)cc1,,,H37Rv,,MIC80,resazurin / absorbance,1.1 µM
CC1=C(O)c2cccc(O)c2C(=O)C1=O,,,H37Rv (S-MTB),,MIC,resazurin,>100 µg/mL
CSc1ccc2nc(Nc3nc4ccc(NC(C)=O)cc4s3)sc2c1,,,H37Rv,,EC90,agar,<0.2 µg/mL
CC(C)=CCC/C(C)=C/CNc1ncnc2ccoc12,,,H37Rv,,MIC50,luminescence,>20 µM
CCN(CC)COc1ccc(N(c2cc(C)nc3cc(Cl)ccc23)S(=O)[O-])cc1,,,H37Rv,,MIC,agar,>50 µg/mL
COc1ccccc1C1OC(C2=C(C)NC(=O)NC2c2ccccc2F)=NN1C(C)=O,250 µg/mL,,H37Rv,,inhibition,agar / visual reading,39%
CCC(Oc1c2ccoc2c(OC)c2oc(C)cc(=O)c12)C(=O)OCCN1CCOCC1,12.5 µg/mL,,H37Rv,,inhibition,BACTEC,-81%
Fc1ccc2c(Nc3ccc(Oc4ccc(C(F)(F)F)cc4)cc3)nc(C(F)(F)F)nc2c1,,,H37Rv,,MIC50,luminescence,>50 µM
CCCCN1C(=O)C(=O)N(c2ccccc2)C1=O,12.5 µg/mL,,H37Rv,,inhibition,BACTEC,0%
C[C@H]1COc2c(N3CCN(C)CC3)c(F)cc3c(=O)c(C(=O)O)cn1c23,,,5 isolates drug-resistant,,MIC90,,1 µg/mL
Fc1ccc2c(Nc3ccc(Oc4ccc(Cl)cc4)cc3)ncnc2c1,,,H37Rv,,MIC50,luminescence,>50 µM
CCCCCCCCOC1OC(C)C(O[C@@H]2O[C@@H]([C@H](O)CO)[C@H](O)[C@H]2O)C(O)C1O,,,H37Ra,,MIC,,>128 µg/mL
FC(F)(F)c1ccc(N2CCC(Oc3ccc(Nc4ncnc5ccccc45)cc3)CC2)cc1,,,H37Rv,,MIC50,luminescence,>10 µM
C=C1C(=O)OC2C1CCC(C)C1(O)C=CC(=O)C21C,12.8 µg/mL,,H37Rv,,inhibition,BACTEC,19%
NC(=S)N(Cc1cc2ccccc2nc1Cl)c1ccc([N+](=O)[O-])cc1,,,H37Ra,,MIC,,200 µg/mL
CC(C)=CCC/C(C)=C/CNc1ncnc2cc(F)ccc12,,,H37Rv,,MIC50,luminescence,>20 µM
NNC(=O)c1ccncc1,,Rifampicin- and isoniazid-resistant,Clinical isolate 18460,,MIC,broth dilution,≤10 µM
O=C(N/N=C/c1ccc(O)cc1O)c1ccncc1,128 µg/mL,,H37Rv,,inhibition,BACTEC,99%
O=C(O)c1cccc2ccccc12,,,H37Ra,,MIC,,200 µg/mL
NNC(=O)c1ccccn1,,,H37Rv,,MIC bound,BACTEC,≤12.5 µg/mL
CNC(=S)N(Cc1cc2ccccc2nc1Cl)c1ccc(F)c(Cl)c1,,,H37Ra,,MIC,,50 µg/mL
NNC(=O)c1ccncc1,,,H37Rv (ATCC 27294),,MIC,resazurin,0.05 µM
Nc1cc2nc3ccccc3nc2cc1N,,,H37Rv,VERO,MIC,BACTEC,>12.5 µg/mL
Fc1ccc2c(Nc3ccc(Oc4ccc(C(F)(F)F)cc4)cc3)ncnc2c1,,,H37Rv,,MIC50,luminescence,>20 µM
O=C(NC(=O)Nc1ccc(Cl)cc1)NC(=O)c1ccccc1F,12.5 µg/mL,,H37Rv,,inhibition,BACTEC,98%
CNC(=S)N(Cc1cc2ccccc2nc1Cl)c1ccccc1,,,H37Ra,,MIC,,100 µg/mL
CO/C(C)=C1/NC(=O)[C@H]([C@@H](C)O)NC(=O)c2csc(n2)-c2cc(O)c(-c3nc(C(=O)NCCCN4CCOCC4)cs3)nc2-c2csc(n2)[C@@H]2COC(=O)c3c4c5c(cccc5n3O)COC(=O)[C@@H](O[C@H]3C[C@](C)(O)[C@H](N(C)C)[C@H](C)O3)[C@@H](OC4)[C@H](NC(=O)c3csc1n3)c1nc(cs1)C(=O)N2,,Rifampicin- and isoniazid-resistant,Clinical isolate 8600,,MIC,broth dilution,≤2.5 µM
FC(F)(F)Oc1ccc(Nc2ncnc3ccsc23)cc1,,,H37Rv,,MIC50,luminescence,>50 µM
CC(/C=N/N=C(N)N)=N\N=C(N)N,12.5 µg/mL,,H37Rv,,inhibition,BACTEC,21%
COc1ccc(NC(=O)CC(C(C)=O)C(=O)Nc2cccc3ccccc23)cc1,30 µg/mL,,H37Rv,,inhibition,,0%
NC1C(=O)OC(C(O)CO)C1O,12.5 µg/mL,,H37Rv,,inhibition,BACTEC,4%
CCSN(SCC)C(=S)c1ncnc(N(C)O)c1[N+](=O)[O-],,,,,MBC,,10.42 µg/mL
CCCCCNC(=O)c1csc(-c2csc(CCNC(C)=O)n2)n1,,,H37Rv,,MIC bound,BACTEC,>12.8 µg/mL
Clc1ccc2c(c1)CCC(Nc1ncnc3ccccc13)C2,,,H37Rv,,MIC50,luminescence,>50 µM
COc1ccc2nc3c(C)n(C)ccc-3c2c1,12.5 µg/mL,,H37Rv,,inhibition,BACTEC,38%
COC(=O)c1ccc2c(Nc3ccc(Oc4ccc(C(F)(F)F)cc4)cc3)ncnc2c1,,,H37Rv,,MIC50,luminescence,>10 µM
Cc1cc2nc(Oc3ccccc3)nc(=O)n2o1,6.25 µg/mL,,H37Rv,,inhibition,resazurin,22%
C=C(NC(=O)c1csc(-c2nc3c(cc2O)-c2nc(cs2)C(=O)N[C@@H]([C@@H](C)O)C(=O)N/C(=C(\C)OC)c2nc(cs2)C(=O)N[C@@H]2c4nc(cs4)C(=O)N[C@@H](COC(=O)c4c5c6c(cccc6n4O)COC(=O)[C@@H](O[C@H]4C[C@](C)(O)[C@H](N(C)C)[C@H](C)O4)[C@H]2OC5)c2nc-3cs2)n1)C(N)=O,,,Clinical isolate 30425,,MIC,broth dilution,≤2.5 µM
C[N+](C)(C)CC(=O)N/N=C/c1ccccc1O,12.5 µg/mL,,H37Rv,,inhibition,BACTEC,-11%
CCc1c(Cl)c(O)c(Cl)c(O)c1C(=O)O[C@H]1[C@H](O)[C@H](OC)[C@H](OC/C2=C\C=C\CC(O)/C(C)=C/C(CC)C(O[C@@H]3OC(C)(C)[C@@H](OC(=O)C(C)C)[C@H](O)[C@@H]3O)/C(C)=C/C(C)=C/CC(C(C)O)OC2=O)O[C@@H]1C,,,H37Rv,,MIC50,broth dilution,0.085 µM
CCCNC(=O)OCc1cnc2ccc(OC)cc2c1COC(=O)NCCC,,,H37Rv,,MIC bound,BACTEC,>12.5 µg/mL
FC(F)(F)Oc1ccc(Oc2ccc(Nc3ncnc4cc(Br)ccc34)cc2)cc1,,,H37Rv,,MIC50,luminescence,>20 µM

10 of the rows above, restated:

structure	dose	mutations	strain	cell line	read-out	read by	value
FC(F)(F)Oc1ccc(Oc2ccc(Nc3ncnc4cc(Br)ccc34)cc2)cc1			H37Rv		MIC50	luminescence	>20 µM
O=C(N/N=C/c1ccc(O)cc1O)c1ccncc1	128 µg/mL		H37Rv		inhibition	BACTEC	99%
CCSN(SCC)C(=S)c1ncnc(N(C)O)c1[N+](=O)[O-]					MBC		10.42 µg/mL
CC(C)=CCC/C(C)=C/CNc1ncnc2ccoc12			H37Rv		MIC50	luminescence	>20 µM
CC1=CC(=O)c2c(O)cccc2C1=O			CIBIN 99 (MDR-MTB)		MIC	resazurin	1.56 µg/mL
CCN(CC)COc1ccc(N(c2cc(C)nc3cc(Cl)ccc23)S(=O)[O-])cc1			H37Rv		MIC	agar	>50 µg/mL
COc1ccccc1C1OC(C2=C(C)NC(=O)NC2c2ccccc2F)=NN1C(C)=O	250 µg/mL		H37Rv		inhibition	agar / visual reading	39%
NC(=S)N(Cc1cc2ccccc2nc1Cl)c1ccc(Cl)cc1			H37Ra		MIC		100 µg/mL
FC(F)(F)Oc1ccc(Nc2ncnc3ccsc23)cc1			H37Rv		MIC50	luminescence	>50 µM
CC(/C=N/N=C(N)N)=N\N=C(N)N	12.5 µg/mL		H37Rv		inhibition	BACTEC	21%